Anti-infective test results gathered from many reports (values: NIAID ChemDB through PubChem).

Shared fields: whole-cell or culture tests; agent: HIV-1; read by: luminescence; read-out: EC50

ECn: concentration that inhibits the pathogen or its effect by n%.

SMILES	cell line	changes	conditions	strain	result
C#C[C@]1(CO)O[C@@H](n2cnc3c(N)nc(F)nc32)C[C@@H]1OC(=O)CCCCCCCCC	U373-CD4-CXCR4	-	pseudotyped	NL4-3	0.0013 µM
CO[C@H]1CC[C@H](C)N2C[C@H]1n1cc(C(=O)NCc3ccc(F)c(Cl)c3F)c(=O)c(O)c1C2=O	MT-4	-	-	IIIB	0.001 µM
[Cl][Mn][Cl].c1cc2nc(c1)CNCCNCCNCCNC2	TZM-bl	-	-	NL4-3	17.2 µM
C#C[C@]1(CO)O[C@@H](n2cnc3c(NC(=O)CCC)nc(F)nc32)C[C@@H]1OC(=O)CCC	U373-CD4-CXCR4	-	pseudotyped	NL4-3	0.102 µM
CC(=O)c1ccc2ccc(/C=C/c3cc(O)c(O)c(O)c3)nc2c1O	TZM-bl	-	-	-	0.3 µM
Fc1ccc(/C=C/c2cc(Cl)c3ccccc3n2)c(C(F)(F)F)c1	TZM-bl	-	-	UG070	75.78 µM
C1=NCCNCCNCCN=C2CCCc3ccc1nc32.[Cl][Mn][Cl]	TZM-bl	-	-	NL4-3	1.1 µM
CCOC(=O)[C@@H](OC(C)(C)C)c1c(C)nc(C)c(-c2ccc(OC3COCC3c3ccc(F)cc3)cc2)c1N1CCC(C)(C)CC1	MT-2	-	-	NL4-3	≤0.1 µM
O=C(/C=C/c1ncc(-c2ccccc2)cn1)Nc1cc(-c2ccc3c(c2)CCCC3)[nH]n1	MT-4	K103N	-	NL4-3	1.45 µM
C#C[C@]1(CO)O[C@@H](n2cnc3c(N)nc(F)nc32)C[C@@H]1OC(=O)CCCCCCCCCCCCCCCCCCC	U373-CD4-CXCR4	-	pseudotyped	NL4-3	0.6353 µM
CCC(NP(=O)(CO[C@@H]1C=C(F)[C@H](n2cnc3c(N)ncnc32)O1)NC(CC)C(=O)OC(C)C)C(=O)OC(C)C	MT-2	-	-	IIIB	>2 µM
C#C[C@]1(CO)O[C@@H](n2cnc3c(N)nc(F)nc32)C[C@@H]1OC(=O)CCCCCC	U373-CD4-CXCR4	-	pseudotyped	NL4-3	0.0041 µM
[Cl][Cu][Cl].c1c2c3nc4c1CCC[C@@H]4NCCNCCNCCN[C@H]3CCC2	TZM-bl	-	-	NL4-3	0.4 µM
CC(=O)c1ccc2ccc(C(=O)Nc3ccc(O)c(O)c3)nc2c1O	TZM-bl	-	-	-	0.9 µM
CCCCCOC(=O)C[C@H](NP(=O)(CO[C@H](CF)COc1nccc(N)n1)Oc1ccccc1)C(=O)OCCCCC	TZM-bl	-	-	NL4-3	>43.21 µM
Clc1cc(/C=C/c2ccco2)nc2ccccc12	TZM-bl	-	-	VB59	82.52 µM
O=C(Nc1cc(-c2ccc3c(c2)CCCC3)[nH]n1)c1ccc(-c2ccncc2)s1	MT-4	WT	-	NL4-3	4.37 µM
Cc1cc([N+](=O)[O-])c(C)c2c1[nH]c1cc(Cl)ccc12	TZM-bl	-	-	NL4-3	1.4 µM
COc1cc(/C=C/c2cc(Cl)c3ccccc3n2)cc(OC)c1	TZM-bl	-	-	UG070	111 µM
C#C[C@]1(CO)O[C@@H](n2cnc3c(N)nc(F)nc32)C[C@@H]1OC(=O)C(C)(C)CCC	U373-CD4-CXCR4	-	pseudotyped	NL4-3	0.0464 µM
Nc1ccc(/C=C/c2cc(Cl)c3ccccc3n2)cc1	TZM-bl	-	-	UG070	47.73 µM
COc1cc(C(=O)Sc2ccccc2C(=O)NCCC(N)=O)cc(OC)c1OC	MT-4	-	-	IIIB	2.2 µM
[Cl][Zn][Cl].c1cc2c3nc1CNCCNCCNCCNC3CCC2	TZM-bl	-	-	NL4-3	1.1 µM
Cc1ccnc2c1NC(=O)c1cccnc1N2C1CC1	-	-	-	-	>40.5 µM
CC(C)=CCOc1cc(NC(=S)c2ccoc2C)ccc1Cl	TZM-bl	D36G	-	NL4-3	61.66 µM
COc1cccc(-c2nnc(-c3ccc4cccc(OC)c4n3)o2)c1	TZM-bl	-	-	VB59	>900 µM
O=C(Nc1cc(-c2ccc3c(c2)CCCC3)[nH]n1)c1ccc(-c2cncnc2)s1	MT-4	WT	-	NL4-3	1.93 µM
[Cl][Zn][Cl].c1c2c3nc4c1CCC[C@@H]4NCCNCCNCCN[C@H]3CCC2	TZM-bl	-	-	NL4-3	0.27 µM
Clc1cc(/C=C/c2ccc3ccccc3c2)nc2ccccc12	TZM-bl	-	-	UG070	19.32 µM
[Cl][Fe]([Cl])[Cl].c1c2c3nc4c1CCC[C@@H]4NCCNCCNCCN[C@H]3CCC2	TZM-bl	-	-	NL4-3	0.2 µM
Clc1cc(/C=C/c2ccc(N3CCCCC3)cc2)nc2ccccc12	TZM-bl	-	-	VB59	109 µM
Cc1cn([C@H]2C[C@H](N=[N+]=[N-])[C@@H](CO)O2)c(=O)[nH]c1=O	TZM-bl	-	-	UG070	0.027 µM
CCCCCOC(=O)C[C@H](NP(=O)(CO[C@@H](CF)Cn1ccc2c(=O)[nH]c(N)nc21)N[C@@H](CC(=O)OCCCCC)C(=O)OCCCCC)C(=O)OCCCCC	TZM-bl	-	-	NL4-3	>4 µM
C#C[C@]1(CO)O[C@@H](n2cnc3c(N)nc(F)nc32)C[C@@H]1OC(C)=O	U373-CD4-CXCR4	-	pseudotyped	NL4-3	0.1055 µM
COC(=O)N[C@H](C(=O)N[C@@H](Cc1ccc(C#Cc2cnc(N3CC4CCC(C3)N4C3COC3)nc2)cc1)[C@H](CN(Cc1c(F)cc(-c2ccn(C(F)F)n2)cc1F)NC(=O)[C@@H](NC(=O)OC)C(C)(C)C(F)(F)F)OC(=O)CC(C)(C)c1c(CC(=O)Nc2cc(C(=O)O)cc(C(=O)O)c2)cc(C)cc1OP(=O)(O)O)C(C)(C)C(F)(F)F	MT-4	-	-	IIIB	0.0622 µM
C#C[C@]1(CO)O[C@@H](n2cnc3c(N)nc(F)nc32)C[C@@H]1OC(=O)C1CCC(CCCCC)CC1	U373-CD4-CXCR4	-	pseudotyped	NL4-3	0.0018 µM
COC(=O)N[C@H](C(=O)N[C@@H](Cc1ccc(C#Cc2cnc(N3CC4CCC(C3)N4C3COC3)nc2)cc1)[C@H](CN(Cc1c(F)cc(-c2ccn(C(F)F)n2)cc1F)NC(=O)[C@@H](NC(=O)OC)C(C)(C)C(F)(F)F)OC(=O)CC(C)(C)c1c(CC(=O)N2CCN(S(=O)(=O)N(C)C)CC2)cc(C)cc1OP(=O)(O)O)C(C)(C)C(F)(F)F	MT-4	-	-	IIIB	1.28 µM
c1cc(CN2CCCNCCNCCCNCC2)ccc1CN1CCCNCCNCCCNCC1	TZM-bl	-	-	BaL	>1000 µM
COC(=O)N[C@H](C(=O)N[C@@H](Cc1ccc(C#Cc2cnc(N3CC4CCC(C3)N4C3COC3)nc2)cc1)[C@H](CN(Cc1c(F)cc(-c2ccn(C(F)F)n2)cc1F)NC(=O)[C@@H](NC(=O)OC)C(C)(C)C(F)(F)F)OC(=O)CC(C)(C)c1c(CC(=O)N(CCC(=O)O)CCC(=O)O)cc(C)cc1OP(=O)(O)O)C(C)(C)C(F)(F)F	MT-4	-	-	IIIB	0.1696 µM
O=C(/C=C/c1ncc(-c2cccnc2)cn1)Nc1cc(-c2ccc3c(c2)CCCC3)[nH]n1	MT-4	K103N	-	NL4-3	0.26 µM

Repeating the first 4 entries:

SMILES | cell line | changes | conditions | strain | result
C#C[C@]1(CO)O[C@@H](n2cnc3c(N)nc(F)nc32)C[C@@H]1OC(=O)CCCCCCCCC | U373-CD4-CXCR4 | - | pseudotyped | NL4-3 | 0.0013 µM
CO[C@H]1CC[C@H](C)N2C[C@H]1n1cc(C(=O)NCc3ccc(F)c(Cl)c3F)c(=O)c(O)c1C2=O | MT-4 | - | - | IIIB | 0.001 µM
[Cl][Mn][Cl].c1cc2nc(c1)CNCCNCCNCCNC2 | TZM-bl | - | - | NL4-3 | 17.2 µM
C#C[C@]1(CO)O[C@@H](n2cnc3c(NC(=O)CCC)nc(F)nc32)C[C@@H]1OC(=O)CCC | U373-CD4-CXCR4 | - | pseudotyped | NL4-3 | 0.102 µM

Conditions beyond the fields shown may differ between rows. An empty or dashed field is not shown.